The values that follow come from publication PMC7540527, “Synthesis of Antiviral Perfluoroalkyl Derivatives of Teicoplanin and Vancomycin” (Chemmedchem, 2020).

This test has as its system panel of Gram-positive bacteria. The test can be described thus: Antibacterial activity on a panel of Gram-positive bacteria, overall statement. It counts as cell-based. The settings on record: for Antibacterial activity against resistant enterococci (in words): resistant enterococci having vanA and vanB genes.

Consider `CC(=O)NC1C(OC2c3ccc(c(Cl)c3)Oc3cc4cc(c3O)Oc3ccc(cc3Cl)CC3NC(=O)C(n5cc(COCCOCCCC(F)(F)C(F)(F)C(F)(F)C(F)(F)F)nn5)c5ccc(O)c(c5)Oc5cc(O)cc(c5)C(NC3=O)C(=O)NC4C(=O)NC3C(=O)NC2C(=O)NC(C(=O)O)c2cc(O)cc(O)c2-c2cc3ccc2O)OC(CO)C(O)C1O` (stereo not shown) [Compound 15], for which the “Antibacterial activity against resistant enterococci (in words)” value is listed as “good activity”; the “Antibacterial activity against sensitive and resistant staphylococci (in words)” value is “excellent antibacterial activity”.
In the same order, the values of `CC(=O)NC1C(OC2c3ccc(c(Cl)c3)Oc3cc4cc(c3O)Oc3ccc(cc3Cl)CC3NC(=O)C(n5cc(COCCOCCOCCOCCOCCCC(F)(F)C(F)(F)C(F)(F)C(F)(F)F)nn5)c5ccc(O)c(c5)Oc5cc(O)cc(c5)C(NC3=O)C(=O)NC4C(=O)NC3C(=O)NC2C(=O)NC(C(=O)O)c2cc(O)cc(O)c2-c2cc3ccc2O)OC(CO)C(O)C1O` (stereo not shown) [Compound 16] are “good activity” and “excellent antibacterial activity”.
